# Results of single-concentration screens

The values are deposited in ChEMBL (CHEMBL3988442, “University of Dundee, Small-Polar-MMV Screening Library” (2021)).

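Whole-cell growth test on Mycobacterium tuberculosis, read after 3 days in glucose-containing 7H9 medium; the read-out is not stated. Tested at 50 µM. Direction is inferred from retests: higher values go with more growth inhibition. Size under these conditions: about 69,000 compounds, about 760 of them at 50% or above in at least one test.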

Values are the deposited “Percent Effect”, in %.
The controls that fix the scale are not given in the record; negative values are as filed.
The entries come from a sample that favours strong results.
Two or more numbers in one place are separate tests of the same structure; such repeats can differ widely.

For CC(NC(=O)Cn1cccn1)c1ccc2c(c1)OCCCO2 (stereo not given) the result was -30.51%. With CC(=O)N1CCc2cc(Cl)cc(Cl)c2C1 the screen gave 13.29%. CCSc1ncc(CN2CCN(c3ncc(C)c(N)n3)CC2)cn1 gave 51.02%. Fc1cccnc1N1CCCC(c2nccs2)C1 (stereo not given) read 21.3%.

COc1cccc(CN(C)C(=O)Nc2ccc3c(c2)OCCO3)c1 gave -19.53% & -3.634%. Result for CC(C)C(=O)Nc1cc(C(C)(C)C)nn1-c1ccccn1 was 22.47%. CC(=O)N1CCC(n2ccc(-c3cnc(NCC(C)C)nc3)n2)CC1 read 52.34%. Result for Cc1ccccc1OCC1CCCN(c2cc(N)nc(N)n2)C1 (stereo not given) was 72.18%.

With O=S(=O)(NCCNc1cc(-n2cccn2)ncn1)c1cccs1 the screen gave -16.24% & 5.048%. For Cn1cncc1CN1CCCC1c1cncc(Oc2ccc(F)cc2)n1 (stereo not given) the result was 62.76%. N#Cc1cccc(S(=O)(=O)N2CCCCC2CCN2CCCC2=O)c1 (stereo not given) read 13.42%. For Cc1ccc(NC2CCCN(C3Cc4ccccc4C3)C2)nn1 (stereo not given) the result was -21.31% & -0.9861%.

CC(=O)NCc1noc2c1CN(Cc1cnn(C)c1)CC2 gave 0.3226% & -5.495%. With c1coc(-c2nc3c(c(NCc4n[nH]c5c4CCC5)n2)CCNCC3)c1 the screen gave 19.28%. Result for CC(NC(=O)CNc1cc2c(cc1Cl)NC(=O)CO2)c1ccco1 (stereo not given) was -23.33%. CC(=O)c1c(C)nn(CC(=O)Nc2ccc(Br)cc2)c1C read 59.63% & 65.27%.

With CN(C)c1cc(CNC(=O)C2COc3ccccc3O2)ccn1 (stereo not given) the screen gave -10.3%. With O=C(CCc1ccco1)NS(=O)(=O)N1CCOc2ccccc21 the screen gave -0.6062% & -1.454%. Result for Cc1cc(CN2CCN(C(=O)CCc3ccco3)CC2)on1 was 32.27% & 26.48%. For CCCc1nn(Cc2csc(C(C)C)n2)c(=O)o1 the result was 53.02%.

Result for COc1ccc(CC(C)Nc2cccc(SC)c2)cc1 (stereo not given) was 44.26%. For COc1ccc(CN(Cc2ccccn2)Cc2cncn2C)cc1.O=C(O)CC(O)(CC(=O)O)C(=O)O the result was 22.24%. CN(C(=O)COc1ccc(-c2noc(C3CCCO3)n2)cc1)C1CC1 (stereo not given) gave 1.003%. Cc1nnc(CN(Cc2ccccc2Cl)C2CCCC2)o1 gave 6.398% & -1.246%.

For Cc1c(CN2CCc3[nH]cnc3C2C(=O)O)[nH]c2ccc(F)cc12 (stereo not given) the result was 36.9% & 17.22%. CC(C)OCCS(=O)(=O)c1nccn1-c1cccc(F)c1 read 18.75%. Result for C=Cc1ccc(CN2C(=O)C3(CCNCC3)Nc3ccccc32)cc1 was 85.39%. With Clc1ccccc1C1(c2ccnc(C3CCCC3)n2)CCNCC1 the screen gave 58.05%.

For CN1CCc2[nH]nc(C(=O)N3CCC4(CCCO4)CC3)c2C1 the result was 23.02%. Result for CCOCCSc1nnc(Cc2ccccc2F)o1 was 77.31%. With CO[C@@H]1CCN(c2nnc(C)s2)C[C@@H]1Cc1ccccc1.O=C(O)C(F)(F)F the screen gave 53.46% & 53.06%. Result for Cc1noc(C)c1CNCC1COCc2c(-c3ccoc3)nnn2C1.O=C(O)C(F)(F)F (stereo not given) was 24.42%.

Result for CCSCc1ccc(C(=O)N2CCCN(CC(N)=O)CC2)cc1 was -13.32%. For Cc1noc(COCC(=O)Nc2cc(C)c(Br)cn2)n1 the result was 51.33%. Cc1nc(C2CCCN2Cc2cc(Cl)c3c(c2)OCO3)no1 (stereo not given) gave 44.74%.

2 of the entries, repeated:

With CC(=O)N1CCc2cc(Cl)cc(Cl)c2C1 the screen gave 13.29%.
With C=Cc1ccc(CN2C(=O)C3(CCNCC3)Nc3ccccc32)cc1 the screen gave 85.39%.